This assay concerns the target Stx2a A-subunit (Escherichia phage 933W, UniProt P09385). In words: AlphaScreen competition assay: inhibition of binding between Stx2a A-subunit and biotinylated MMβA-mono. More on the design: species or system Escherichia coli. The conditions noted are these: read-out: relative IC50 for inhibition of binding of MMβA-mono to the Stx2a A-subunit, biotinylated MMβA-mono 30 nM, Stx2a A-subunit 20 nM, room temperature, mean ± SE, n = 3.

SMILES strings stand for the structures.

For `CSCC[C@H](NC(=O)[C@H](C)NC(=O)[C@@H](N)CCSC)C(=O)N[C@@H](CCSC)C(=O)NCCC(=O)N[C@@H](CCCNC(=N)N)C(=O)N[C@@H](CCCNC(=N)N)C(=O)N[C@@H](CCCNC(=N)N)C(=O)N[C@@H](CCCNC(=N)N)C(=O)N[C@@H](C)C(N)=O`, the half-inhibitory concentration (IC50) (usually the concentration that inhibits the measured activity by half) turned out to be 8.14 µM.

Values taken from paper PMC9259562, “A unique peptide-based pharmacophore identifies an inhibitory compound against the A-subunit of Shiga toxin” (Scientific Reports, 2022).
